{"source": "patent US12643905B2", "about": "“Spiropyrrolidine derived antiviral agents” (priority 2021, dated 2026)", "target": "SARS-CoV-2 3CL-protease (Severe acute respiratory syndrome coronavirus 2, UniProt P0DTD1)", "assay": "SARS-CoV-2 3C-like (3CL) protease fluorescence assay (FRET)", "details": "read-out: FRET IC50; recombinant SARS-CoV-2 3CL-protease 10 nM, 30 min preincubation, run in duplicate", "procedure": "SARS-CoV-2 3C-like (3CL) protease fluorescence assay (FRET): Recombinant SARS-CoV-2 3CL-protease was expressed and purified. TAMRA-SITSAVLQSGFRKMK-Dabcyl-OH peptide 3CLpro substrate was synthesized. Black, low volume, round-bottom, 384 well microplates were used. In a typical assay, 0.85 μL of test compound was dissolved in DMSO then incubated with SARS-CoV-2 3CL-protease (10 nM) in 10 μL assay buffer (50 mM HEPES [pH 7.5], 1 mM DTT, 0.01% BSA, 0.01% Triton-X 100) for 30 min at RT. Next, 10 μL of 3CL-protease substrate (40 μM) in assay buffer was added and the assays were monitored continuously for 1 h in an Envision multimode plate reader operating in fluorescence kinetics mode with excitation at 540 nm and emission at 580 nm at RT. No compound (DMSO only) and no enzyme controls were routinely included in each plate. All experiments were run in duplicate.\nData Analysis: SARS-CoV-2 3CL-protease enzyme activity was measured as initial velocity of the linear phase (RFU/s) and normalized to controlled samples DMSO (100% activity) and no enzyme (0% activity) to determine percent residual activity at various concentrations of test compounds (0-10 μM). Data were fitted to normalized activity (variable slope) versus concentration fit in GraphPad Prism 7 to determine IC50. All experiments were run in duplicate, and IC50 ranges are reported as follows: A<0.1 μM; B 0.1-1 μM; C>1 μM."}
{"smiles": "CC(C)(C)C[C@H](NC(=O)C(=O)NC12CC3CC(CC(C3)C1)C2)C(=O)N1C[C@]2(C[C@H]1C#N)C(=O)Nc1ccccc12", "values": [{"measurement": "IC50", "value": "< 100", "unit": "nM"}]}
